# From PubChem BioAssay AID624414 (National Center for Advancing Translational Sciences (NCATS), 2012)
# The chains behind the UniProt entries cited, without tags or fusion partners.
# UniProt Q9GZU1, whole entry: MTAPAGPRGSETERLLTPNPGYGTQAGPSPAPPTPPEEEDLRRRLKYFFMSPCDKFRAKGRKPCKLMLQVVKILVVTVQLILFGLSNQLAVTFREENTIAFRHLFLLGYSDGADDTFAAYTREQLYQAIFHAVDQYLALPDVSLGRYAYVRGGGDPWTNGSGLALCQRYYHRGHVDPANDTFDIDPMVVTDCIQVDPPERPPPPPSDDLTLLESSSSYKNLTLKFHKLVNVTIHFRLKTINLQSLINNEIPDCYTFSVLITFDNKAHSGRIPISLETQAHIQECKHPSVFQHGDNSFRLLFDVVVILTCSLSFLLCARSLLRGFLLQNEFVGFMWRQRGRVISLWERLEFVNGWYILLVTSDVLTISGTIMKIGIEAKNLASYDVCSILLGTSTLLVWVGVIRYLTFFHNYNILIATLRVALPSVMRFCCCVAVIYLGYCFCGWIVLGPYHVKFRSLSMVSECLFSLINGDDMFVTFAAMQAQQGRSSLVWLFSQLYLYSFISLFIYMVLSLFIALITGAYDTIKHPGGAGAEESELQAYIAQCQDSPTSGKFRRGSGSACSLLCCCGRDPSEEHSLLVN
# Only a part is listed here, and it is no random draw. Some salts and complexes are drawn in separate pieces, as the source files them; their charges need not balance. Calls of active or inactive are those of the source. Rule as the data show it: active = activation above about 50%; inconclusive = mostly about 30% to 49%; inactive = weaker than that.
# Target: Mucolipin-1 (Homo sapiens) (UniProt Q9GZU1)
# Test: qHTS for Agonists of the Human Mucolipin Transient Receptor Potential 1 (TRPML1); also: 0% is about no effect
# Details: TRPML1-expressing cells, Ca2+ dye fluorescence, FDSS; hits give high values
# How it was run: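 TRPML1-DL cells, Tet-induced overnight (~16 h, 37 degrees C), loaded 45-90 min at room temperature with Ca8 no-wash calcium dye plus quencher. FDSS fluorescence: 10 s baseline, compound pin-transfer, 110 s agonist read, then EC80 54-4 (4uM final) and 110 s antagonist read.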
row,SMILES,activation
1,CC(C)(C)n1nnnc1C(c1ccccc1)N1CCC(n2c(=O)[nH]c3ccccc32)CC1 (centres undefined),inactive: -0.599%
2,O=C(NCC1(N2CCOCC2)CCCCC1)c1ccc(Cl)cc1,inactive: 0.897%
3,CCOc1ccc(C)cc1CN(CCCl)CCCl,inactive: 0.968%
4,O=C(NCC1(N2CCOCC2)CCCCC1)c1cc(=O)[nH]c2ccccc12,inactive: -0.618%
5,COc1cc(C(=O)NCC2(N3CCCCC3)CCCCC2)ccc1OC(F)F,inactive: 0.311%
6,COc1ccc(NC2CCN(C(=O)OC(C)(C)C)CC2)cc1,inactive: -0.441%
7,CC(C)c1ccc(C(=O)NCC2(N3CCOCC3)CCCCC2)cc1,inactive: 0.138%
8,CN1CCN(CCOC(=O)C(O)(c2ccccc2)c2ccccc2)CC1,inactive: 0%
9,CCCCn1nnnc1C(c1cccc2ccccc12)N1CCC(n2c(=O)[nH]c3ccccc32)CC1 (centres undefined),inactive: 2.52%
10,O=[N+]([O-])c1cc([N+](=O)[O-])c(NCC2CCS(=O)(=O)C2)c([N+](=O)[O-])c1 (centres undefined),inactive: -0.782%
11,O=C(NCC1(N2CCCCC2)CCCCC1)c1cccc(C(F)(F)F)c1,inactive: 0.406%
12,CCCOc1cccc(C(=O)NCC2(N3CCOCC3)CCCCC2)c1,inactive: 1.61%
13,O=c1[nH]c2ccccc2n1C1CCN(C(c2ccccc2OC(F)(F)F)c2nnnn2C2CCCC2)CC1 (centres undefined),inactive: 2.44%
14,N#CC1(Nc2ccccc2)CCN(CCc2ccccc2)CC1,inactive: -0.436%
15,CCN1CCC(Nc2ccc(Cl)cc2)CC1,inactive: -0.107%
16,CSc1ccc(C(=O)NCC2(N3CCOCC3)CCCCC2)cc1,inactive: -0.0358%
17,CCOc1ccc(C(=O)NCC2(N3CCOCC3)CCCCC2)cc1,inactive: 0.897%
18,O=C(NCC1(N2CCCCC2)CCCCC1)c1cccc([N+](=O)[O-])c1,inactive: 1.86%
19,O=C(NCC1(N2CCCCC2)CCCCC1)c1ccc(OC(F)F)cc1,inactive: -0.127%
20,CC(C)(C)n1nnnc1C(c1ccccc1OC(F)(F)F)N1CCC(n2c(=O)[nH]c3ccccc32)CC1 (centres undefined),inactive: -0.662%

row,SMILES,activation
1,COc1ccc(C(c2nnnn2C2CCCC2)N2CCC(n3c(=O)[nH]c4ccccc43)CC2)cc1 (centres undefined),inactive: -0.441%
2,O=[N+]([O-])c1cc([N+](=O)[O-])c(Nc2ccc(Cl)cc2)c([N+](=O)[O-])c1,inactive: 6.4%
3,O=C(NCC1(N2CCOCC2)CCCCC1)c1ccccc1Br,inactive: 1.79%
4,CCCOc1ccc(C(=O)NCC2(N(C)C)CCCCC2)cc1OC,inactive: -0.222%
5,CCCCOc1ccccc1C(=O)NCC1(N2CCOCC2)CCCCC1,inactive: 2.77%
6,Cc1ccc(C(=O)NCC2(N(C)C)CCCCC2)o1,inactive: -0.399%
7,O=C(OC1CN2CCC1CC2)c1ccc([N+](=O)[O-])cc1 (centres undefined),inactive: -1.12%
8,CN1CCC(Nc2cccc(F)c2)CC1,inactive: -0.0671%
9,O=C(NCC1(N2CCCCC2)CCCCC1)c1cncc(Br)c1,inactive: -0.583%
10,COc1ccc2c(c1O)-c1c(O)c(OC)cc3c1[C@H](C2)[N+](C)(C)CC3.O=[N+]([O-])c1cc([N+](=O)[O-])c([O-])c([N+](=O)[O-])c1[O-],inactive: -0.305%
11,CCC(c1nnnn1C(C)(C)C)N1CCC(n2c(=O)[nH]c3ccccc32)CC1 (centres undefined),inactive: -0.162%
12,O=C(NCC1(N2CCOCC2)CCCCC1)c1cc(F)c(F)cc1Cl,inactive: -1.08%
13,COc1cc(OC)c(C(=O)NCC2(N(C)C)CCCCC2)cc1OC,inactive: -0.38%
14,CCCCn1nnnc1C(c1ccnc2ccccc12)N1CCC(n2c(=O)[nH]c3ccccc32)CC1 (centres undefined),inactive: -0.315%
15,CC(C)c1ccc(NC2CCN(C(=O)OC(C)(C)C)CC2)cc1,inactive: 26.3%
16,CCCCn1nnnc1C(c1ccccc1OC(F)(F)F)N1CCC(n2c(=O)[nH]c3ccccc32)CC1 (centres undefined),inactive: -0.378%
17,CN(C)c1cccc(C(=O)NCC2(N3CCCCC3)CCCCC2)c1,inactive: -0.331%
18,O=[N+]([O-])c1cc([N+](=O)[O-])c(OC2CCCCC2O)c([N+](=O)[O-])c1 (centres undefined),inactive: -0.969%
19,COc1ccc(CN(CCCl)CCCl)cc1Cl,inactive: 0.616%
